Only a part is listed here, and it is no random draw. Activity calls are given as the source filed them.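 Rule for the calls: active = inhibition above the screen-wide mean plus 3 SD (cut at about 13% in these data); inactive = the rest.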
system: HIV-1 integrase (with human LEDGF/p75); experiment: blockers of LEDGF/p75-dependent integrase strand transfer – biochemical, TR-FRET, high throughput, primary screen (AID 743269); settings: TR-FRET IN-LEDGF/p75 DNA integration, Eu/Cy5; at 3.7 µM; stronger effect = higher value;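 note: signal is the Cy5 over europium emission ratio at 671 and 618 nm; 0% = plate median of compound wells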

| SMILES | inhibition |
| --- | --- |
| CN1CCC(Nc2ccc(Cl)cc2)CC1 | inactive: -4.19% |
| COc1cc(OC)cc(C(=O)NCC2(N3CCOCC3)CCCCC2)c1 | inactive: 4.62% |
| COc1cccc(C(c2nnnn2C2CCCC2)N2CCC(n3c(=O)[nH]c4ccccc43)CC2)c1OC (stereo not given) | inactive: 4.28% |
| COc1cccc(C(=O)N(c2cc(C)cc(C)c2)C2CCN(C(=O)OC(C)(C)C)CC2)c1 | inactive: 0.32% |
| CCC(CO)(C(=O)OC1CN2CCC1CC2)c1ccccc1 (stereo not given) | inactive: 0.29% |
| CC(C)(C)OC(=O)N1CCC(Nc2ccccc2)CC1 | inactive: -1.9% |
| O=C(O)C1(Nc2ccccc2)CCN(Cc2ccccc2)CC1 | inactive: 0.91% |
| NN(c1ccccc1)C1CCN(CCc2ccccc2)CC1 | inactive: 3.98% |
| CCCOc1ccc(C(=O)NCC2(N(C)C)CCCCC2)cc1 | inactive: -1.52% |
| O=c1[nH]c2ccccc2n1C1CCN(C(c2cc3ccccc3o2)c2nnnn2C2CCCC2)CC1 (stereo not given) | inactive: 0.48% |
| CCOc1ncccc1C(=O)NCC1(N2CCOCC2)CCCCC1 | inactive: 0.79% |
| CN1CCC(Nc2ccc(F)c(Cl)c2)CC1 | inactive: -4.26% |
| O=C(NCC1(N2CCCCC2)CCCCC1)c1ccco1 | inactive: 3.4% |
| Cn1c(=O)[nH]cc(N(CCCl)CCCl)c1=O | inactive: -3.4% |
| CN(C)c1ccc(C(=O)NCC2(N3CCCCC3)CCCCC2)cc1 | inactive: -6.32% |
| Cc1ccccc1NC1(C#N)CCN(Cc2ccccc2)CC1 | inactive: 2.17% |
| CC(C)(C)n1nnnc1C(c1ccnc2ccccc12)N1CCC(n2c(=O)[nH]c3ccccc32)CC1 (stereo not given) | inactive: -3.45% |
| CCN1CCC(Nc2cccc(F)c2)CC1 | inactive: 1.43% |
| COc1ccc(C(c2nnnn2C2CCCCC2)N2CCC(n3c(=O)[nH]c4ccccc43)CC2)cc1 (stereo not given) | inactive: 0.43% |
| Cc1ccc(C(=O)NCC2(N3CCCCC3)CCCCC2)o1 | inactive: 0.52% |
| Fc1ccccc1NC1CCN(Cc2ccccc2)CC1 | inactive: 3.61% |
| Cc1ccc(NC2(C#N)CCN(Cc3ccccc3)CC2)cc1 | inactive: -0.69% |

| SMILES | inhibition |
| --- | --- |
| CC(=O)N(c1ccccc1)C1CCNCC1 | inactive: -5.72% |
| COc1cccc(C(c2nnnn2C2CCCCC2)N2CCC(n3c(=O)[nH]c4ccccc43)CC2)c1OC (stereo not given) | inactive: 5.76% |
| CCC(c1nnnn1C1CCCCC1)N1CCC(n2c(=O)[nH]c3ccccc32)CC1 (stereo not given) | inactive: 6.45% |
| O=c1[nH]c2ccccc2n1C1CCN(C(c2ccnc3ccccc23)c2nnnn2C2CCCCC2)CC1 (stereo not given) | inactive: 7.75% |
| COc1cc(OC)cc(C(=O)NCC2(N3CCCCC3)CCCCC2)c1 | inactive: 2.75% |
| CC(C)(C)n1nnnc1C(c1cccc2ccccc12)N1CCC(n2c(=O)[nH]c3ccccc32)CC1 (stereo not given) | inactive: -2.58% |
| CN(C)C1(CNC(=O)c2cccc(C#N)c2)CCCCC1 | inactive: -1.61% |
| c1ccc(CN2CCC(Nc3ccccc3)CC2)cc1 | inactive: -5.55% |
| C/C(N)=N\P(=O)(Oc1ccccc1)Oc1ccccc1 | inactive: 1.09% |
| Cc1cc(N(CCCl)CCCl)ccc1C=O | inactive: 1.61% |
| O=c1[nH]c2ccccc2n1C1CCN(C(c2ccccc2)c2nnnn2C2CCCC2)CC1 (stereo not given) | inactive: 4.09% |
| CCCN1CCC(Nc2cc(OC)cc(OC)c2)CC1 | inactive: 2.96% |
| N#Cc1ccc(C(=O)NCC2(N3CCCCC3)CCCCC2)cc1 | inactive: 1.21% |
| CC(C)(C)OC(=O)N1CCC(N(C(=O)c2ccccc2)c2ccc(Cl)cc2)CC1 | inactive: 1.37% |
| O=C(OC1CN2CCC1CC2)C1c2ccccc2C=Cc2ccccc21 (stereo not given) | inactive: 2.08% |
| O=c1[nH]c2ccccc2n1C1CCN(C(c2cccs2)c2nnnn2C2CCCC2)CC1 (stereo not given) | inactive: 2.46% |
| CCCCn1nnnc1C(c1cccc(OC)c1OC)N1CCC(n2c(=O)[nH]c3ccccc32)CC1 (stereo not given) | inactive: 3.35% |
| COc1cccc(C(c2nnnn2C(C)(C)C)N2CCC(n3c(=O)[nH]c4ccccc43)CC2)c1OC (stereo not given) | inactive: -3.32% |
| CCOC(=O)N1CCC(Nc2ccc(C)cc2)CC1 | inactive: -11.3% |
| N/C(=N\O)c1c(N)no[n+]1[O-] | inactive: 0.32% |
| O=c1[nH]c2ccccc2n1C1CCN(C(c2cccs2)c2nnnn2C2CCCCC2)CC1 (stereo not given) | inactive: -4.18% |
| NC(=O)C1(Nc2ccccc2)CCN(Cc2ccccc2)CC1 | inactive: -3.04% |

| SMILES | inhibition |
| --- | --- |
| COc1ccc(C(=O)NCC2(N3CCOCC3)CCCCC2)cc1OC | inactive: 1.65% |
| O=c1[nH]c2ccccc2n1C1CCN(C(c2ccnc3ccccc23)c2nnnn2C2CCCC2)CC1 (stereo not given) | inactive: 2.07% |
| CCCCn1nnnc1C(c1ccccc1)N1CCC(n2c(=O)[nH]c3ccccc32)CC1 (stereo not given) | inactive: -1.06% |
| COc1cc(C(=O)NCC2(N3CCOCC3)CCCCC2)cc(OC)c1C | inactive: 1.87% |
| O=C(NCC1(N2CCOCC2)CCCCC1)c1cc(Br)ccc1Cl | inactive: -2.75% |
| COc1ccc(C(c2nnnn2C2CCCC2)N2CCC(n3c(=O)[nH]c4ccccc43)CC2)cc1 (stereo not given) | inactive: 4.17% |
| Cc1ccc(C(=O)NCC2(N(C)C)CCCCC2)o1 | inactive: 1.75% |
| CCCOc1ccc(C(=O)NCC2(N(C)C)CCCCC2)cc1OC | inactive: -2.75% |
| O=C(NCC1(N2CCCCC2)CCCCC1)c1cncc(Br)c1 | inactive: -2.63% |
| CN1CCC(Nc2cccc(F)c2)CC1 | inactive: 0.97% |
| COc1cc(OC)c(C(=O)NCC2(N(C)C)CCCCC2)cc1OC | inactive: -4.58% |
| O=C(NCC1(N2CCOCC2)CCCCC1)c1cc(F)c(F)cc1Cl | inactive: -2.94% |
| CCC(c1nnnn1C(C)(C)C)N1CCC(n2c(=O)[nH]c3ccccc32)CC1 (stereo not given) | inactive: -6.91% |
| CCCCn1nnnc1C(c1ccnc2ccccc12)N1CCC(n2c(=O)[nH]c3ccccc32)CC1 (stereo not given) | inactive: 1.67% |
| CC(C)c1ccc(NC2CCN(C(=O)OC(C)(C)C)CC2)cc1 | inactive: -3.52% |
| COC(=O)C1(Nc2ccccc2)CCN(Cc2ccccc2)CC1 | inactive: -1.26% |
| COc1ccc(CN(CCCl)CCCl)cc1Cl | inactive: -0.87% |
| CN(C)c1cccc(C(=O)NCC2(N3CCCCC3)CCCCC2)c1 | inactive: -0.64% |
| COc1cc(C(=O)NCC2(N3CCCCC3)CCCCC2)ccc1OC(F)F | inactive: -0.04% |
| O=C(NCC1(N2CCOCC2)CCCCC1)c1cc(=O)[nH]c2ccccc12 | inactive: 2.86% |
| CCCCn1nnnc1C(c1cccc2ccccc12)N1CCC(n2c(=O)[nH]c3ccccc32)CC1 (stereo not given) | inactive: 1.15% |
| CN1CCN(CCOC(=O)C(O)(c2ccccc2)c2ccccc2)CC1 | inactive: -2.15% |

| SMILES | inhibition |
| --- | --- |
| CC(C)c1ccc(C(=O)NCC2(N3CCOCC3)CCCCC2)cc1 | inactive: -0.5% |
| COc1ccc(NC2CCN(C(=O)OC(C)(C)C)CC2)cc1 | inactive: 5.52% |
| O=C(NCC1(N2CCCCC2)CCCCC1)c1cccc(C(F)(F)F)c1 | inactive: -5.79% |
| CCN1CCC(Nc2ccc(Cl)cc2)CC1 | inactive: 0.88% |
| N#CC1(Nc2ccccc2)CCN(CCc2ccccc2)CC1 | inactive: -2.48% |
| O=c1[nH]c2ccccc2n1C1CCN(C(c2ccccc2OC(F)(F)F)c2nnnn2C2CCCC2)CC1 (stereo not given) | inactive: 1.11% |
| O=C(NCC1(N2CCCCC2)CCCCC1)c1cccc([N+](=O)[O-])c1 | inactive: 3.6% |
| CSc1ccc(C(=O)NCC2(N3CCOCC3)CCCCC2)cc1 | inactive: -0.49% |
| CC(C)(C)n1nnnc1C(c1ccccc1OC(F)(F)F)N1CCC(n2c(=O)[nH]c3ccccc32)CC1 (stereo not given) | inactive: 2.65% |
| O=C(NCC1(N2CCCCC2)CCCCC1)c1ccc(OC(F)F)cc1 | inactive: -4.15% |
| COc1cc(C(=O)NCC2(N(C)C)CCCCC2)ccc1OC(F)F | inactive: -3.22% |
| CCOC(=O)N1CCC(Nc2cccc(C)c2)CC1 | inactive: -0.55% |
| O=c1[nH]c2ccccc2n1C1CCN(C(c2cccc3ccccc23)c2nnnn2C2CCCC2)CC1 (stereo not given) | inactive: -1.92% |
| O=c1[nH]c2ccccc2n1C1CCN(C(c2ccccc2)c2nnnn2C2CCCCC2)CC1 (stereo not given) | inactive: -0.12% |
| O=C(NCC1(N2CCCCC2)CCCCC1)c1ccc(F)cc1 | inactive: 0.77% |
| CCCCn1nnnc1C(c1cc2ccccc2o1)N1CCC(n2c(=O)[nH]c3ccccc32)CC1 (stereo not given) | inactive: 3.45% |
| O=P1(N(CCCl)CCCl)SCCCS1 | inactive: -1.38% |
| CCCCOc1ccc(C(=O)NCC2(N3CCOCC3)CCCCC2)cc1 | inactive: 1.21% |
| COc1ccc(NC2CCN(CCc3ccccc3)CC2)c(OC)c1 | inactive: -3.01% |
| CCOC(=O)N1CCC(Nc2ccc(F)cc2)CC1 | inactive: 4.82% |
| CC(C)(C)n1nnnc1C(c1ccccc1)N1CCC(n2c(=O)[nH]c3ccccc32)CC1 (stereo not given) | inactive: 3.03% |
| O=C1CCN(Cc2ccccc2)CC1 | inactive: -1.91% |

| SMILES | inhibition |
| --- | --- |
| CCOc1ccc(C)cc1CN(CCCl)CCCl | inactive: 3.83% |
| O=C(OC1CN2CCC1CC2)C1c2ccccc2Oc2ccccc21 (stereo not given) | inactive: 2.14% |
| O=c1[nH]c2ccccc2n1C1CCN(C(c2cc3ccccc3o2)c2nnnn2C2CCCCC2)CC1 (stereo not given) | inactive: -3.6% |
| O=C(NCC1(N2CCCCC2)CCCCC1)c1ccc(Cl)s1 | inactive: -7.34% |
| N#CC1(Nc2ccccc2)CCN(Cc2ccccc2)CC1 | inactive: -1.32% |
| COc1ccc(Cl)cc1C(=O)NCC1(N2CCOCC2)CCCCC1 | inactive: 1.01% |
| CCOC(=O)N1CCC(Nc2ccc(OC)cc2)CC1 | inactive: -0.89% |
| CCCCn1nnnc1C(c1ccc(OC)cc1)N1CCC(n2c(=O)[nH]c3ccccc32)CC1 (stereo not given) | inactive: -0.1% |
| O=c1[nH]c2ccccc2n1C1CCN(C(c2ccccc2OC(F)(F)F)c2nnnn2C2CCCCC2)CC1 (stereo not given) | inactive: -0.46% |
| O=C(NCC1(N2CCCCC2)CCCCC1)c1ccc(Cl)nc1 | inactive: 2.14% |
| Cc1cc(C)cc(N(C(=O)c2ccccc2)C2CCN(C(=O)OC(C)(C)C)CC2)c1 | inactive: 0.41% |
| O=C(NCC1(N2CCOCC2)CCCCC1)c1cc2ccccc2o1 | inactive: -0.22% |
| CSc1ccccc1C(=O)NCC1(N2CCCCC2)CCCCC1 | inactive: -0.13% |
| Cc1cccc(NC2(C#N)CCN(Cc3ccccc3)CC2)c1 | inactive: 1.76% |
| COc1ccc(C(=O)NCC2(N3CCCCC3)CCCCC2)cc1 | inactive: -5.1% |
| CCC(c1nnnn1C1CCCC1)N1CCC(n2c(=O)[nH]c3ccccc32)CC1 (stereo not given) | inactive: 1.22% |
| CC(C)(C)OC(=O)N1CCC(N(C(=O)c2ccccc2)c2ccc(F)cc2)CC1 | inactive: 4.79% |
| COc1ccc(C(=O)NCC2(N3CCCCC3)CCCCC2)c(OC)c1OC | inactive: -0.78% |
| O=C(NCC1(N2CCCCC2)CCCCC1)c1ccc(=O)[nH]c1 | inactive: -7.72% |
| CCCCn1nnnc1C(c1cccs1)N1CCC(n2c(=O)[nH]c3ccccc32)CC1 (stereo not given) | inactive: 0.28% |
| O=C(NCC1(N2CCCCC2)CCCCC1)c1cccs1 | inactive: 1.35% |
| CCCCn1nnnc1C(CC)N1CCC(n2c(=O)[nH]c3ccccc32)CC1 (stereo not given) | inactive: -2.04% |

Reference: PubChem BioAssay AID743269 (The Scripps Research Institute Molecular Screening Center, 2014)
